Results of unrelated studies side by side (data: NIAID ChemDB).

Common to all: whole-cell or culture tests; species: HIV-1; cell line: MT-4; endpoint: fold resistance

Rows are shuffled and stem from different studies.

compound	strain	changes	method	result
CC(C)(C)NC(=O)[C@@H]1C[C@@H]2CCCC[C@@H]2CN1C[C@@H](O)[C@H](Cc1ccccc1)NC(=O)[C@H](CC(N)=O)NC(=O)c1ccc2ccccc2n1	NL4-3.C11 (PR L10F M46I I84V T91S)	PR-L10F M46I I84V T91S	p24	0.333
Cc1ccncc1-c1ccc(C[C@H](C[C@H](O)CN2CCN(Cc3ccc(-c4ccc(Cl)cc4)o3)C[C@H]2C(=O)NCC(F)(F)F)C(=O)N[C@H]2c3ccccc3OC[C@H]2O)o1	4X (PR M46I L63P V82T I84V)	PR-M46I L63P V82T I84V	p24	2
Cc1cn([C@H]2C=C[C@@H](CO)O2)c(=O)[nH]c1=O	BI-12.96 (HXB2(RT-A62V S68G T69D V75I F77L F116Y Q151M))	RT-A62V S68G T69D V75I F77L F116Y Q151M	cytopathic effect	>24
CC(C)=CCOc1cc(NC(=S)c2ccoc2C)ccc1Cl	Recombinant	RT-V106A P225H	cytopathic effect	129
O=[N+]([O-])c1cc(CN2CCCNCCNCCCNCC2)cc(CN2CCCNCCNCCCNCC2)c1	NL4-3	AMD3100-resistant	cytopathic effect / MTT	22.4
Cc1cn([C@H]2C=C[C@@H](COC(=O)NCCSC(=O)OC[C@@H]3CC[C@H](n4cnc5c(=O)[nH]cnc54)O3)O2)c(=O)[nH]c1=O	NNRTI-resistant (RT Y181C)	RT-Y181C	cytopathic effect / MTT	0.3
CCCCNc1nc(C(C)c2c(F)cccc2F)cc(=O)[nH]1	-	RT-Y181C	cytopathic effect / MTT	20
Nc1nc(NC2CC2)c2ncn([C@H]3C=C[C@@H](CO)C3)c2n1	SW3-10125R	RT M41L A62V T69SSS insertion V75V/A M184I L210W T215Y	cytopathic effect / MTT	3
CC(C)=CCN1Cc2cc(Cl)cc3[nH]c(=S)n(c23)C[C@@H]1C	MFE30(RT-P236L)	RT-P236L	antigen	0.2
CC(C)CN(C[C@@H](O)[C@H](Cc1ccccc1)NC(=O)[C@H](CC(N)=O)NC(=O)c1ccc2ccccc2n1)C(=O)NC(C)(C)C	NL4-3	PR-L10R M46I L63P 184V	p24	7.5
CCc1c(Sc2cc(C)cc(C)c2)n(COCCO)c(=O)[nH]c1=O	IIIB MKC-442-resistant (RT Y181C)	RT-Y181C	cytopathic effect / MTT	343
COC(=O)N[C@@H](Cc1c[nH]c2ccccc12)C(=O)NCCCC[C@@H](CO)N(CC(C)C)S(=O)(=O)c1ccc(N)cc1	RF2802 (PR-V82F I84V)	PR-V82F I84V	cytopathic effect / MTT	0.9
CCc1c(Sc2cc(C)cc(C)c2)n(COCCOP(=O)(O)OC[C@H]2O[C@@H](n3cc(C)c(=O)[nH]c3=O)C[C@@H]2N=[N+]=[N-])c(=O)[nH]c1=O	IIIB	RT-D67N K70R K172R	cytopathic effect / MTT	5
Cc1c(Cc2c(F)cccc2F)nc(SCc2ccc(C(C)C)cc2)[nH]c1=O	-	RT-Y188L	cytopathic effect / MTT	>106.9
Cc1cn([C@H]2C[C@H](N=[N+]=[N-])[C@@H](COC(=O)NCCSC(=O)OC[C@@H]3CC[C@H](n4cnc5c(=O)[nH]cnc54)O3)O2)c(=O)[nH]c1=O	NNRTI-resistant (RT Y181C)	RT-Y181C	cytopathic effect / MTT	0.2
CCOC(=O)c1cn(C)cc1S(=O)(=O)c1cc(Cl)ccc1N	Clinical isolate	RT-Y181C	cytopathic effect / MTT	≥23
COc1ccc2c(c1)N(C(=O)OC(C)C)[C@@H](CSC)C(=S)N2	Recombinant	RT-P225H	cytopathic effect	4
CC(C)=CCN1Cc2cccc3[nH]c(=S)n(c23)C[C@@H]1C	1506-RS (RT-Y188L)	RT-Y188L	cytopathic effect / MTT	>556
O=C1N(Cc2ccc(CO)cc2)[C@H](COc2ccccc2)[C@H](O)[C@@H](O)[C@@H](COc2ccccc2)N1Cc1ccc(CO)cc1	IIIB	PR-L10F I84V	cytopathic effect / XTT	31.7
Cc1cn([C@H]2C[C@H](N=[N+]=[N-])[C@@H](CO)O2)c(=O)[nH]c1=O	IIIB MKC-442-resistant (RT Y181C)	RT-Y181C	cytopathic effect / MTT	0.5
O=C(Nc1nccs1)c1cccc(CN2C(=O)N(Cc3ccccc3)[C@H](Cc3ccccc3)[C@H](O)[C@@H](O)[C@H]2Cc2ccccc2)c1	HXB2	PR-V82F	p24	3
CCC(C)Nc1nc(Cc2c(F)cccc2F)c(C)c(=O)[nH]1	-	RT-Y181C	cytopathic effect / MTT	38
COc1ccc2c(c1)N(C(=O)OC(C)C)[C@@H](CSC)C(=S)N2	Recombinant mutant	RT-A98S	cytopathic effect / MTT	0.3
O=C(Nc1nc2ccccc2[nH]1)c1cccc(CN2C(=O)N(CC3CC3)[C@H](Cc3ccccc3)[C@H](O)[C@@H](O)[C@H]2Cc2ccccc2)c1	HXB2	PR-M46I I47V I50V	p24	2.1
COc1ccc(S(=O)(=O)N(CC(C)C)C[C@@H](O)[C@H](Cc2ccccc2)NC(=O)O[C@H]2CO[C@H]3OCC(F)(F)[C@H]32)cc1	NL4-3	L10I G48V I54V A71V I84V L90M SQV resistant	-	260
CC(C)[C@H](NC(=O)OCc1ccccc1)C(=O)N[C@@H](Cc1ccccc1)[C@@H](O)[C@H](O)[C@H](Cc1ccccc1)NC(=O)[C@@H](NC(=O)OCc1ccccc1)C(C)C	HXB2	PR-V82F	p24	1.8
O=c1[nH]cnc2c1ncn2[C@H]1CC[C@@H](CO)O1	Recombinant mutant	RT-A98S	cytopathic effect / MTT	0.3
Cc1cccc(S(=O)(=O)c2c(C(=O)NNCCO)[nH]c3ccc(Cl)cc23)c1	-	RT-K103N Y181C	cytopathic effect / MTT	>2857
CC(=O)Nc1cccc2c1nc(-c1c(F)cccc1F)n2Cc1c(F)cccc1F	-	RT-V108I	cytopathic effect / MTT	17.1
c1ccc(-c2cc(CN3CCCNCCNCCCNCC3)ccc2CN2CCCNCCNCCCNCC2)cc1	NL4-3	AMD3100-resistant	cytopathic effect / MTT	90.3
CCc1cccc2c1nc(-c1c(F)cccc1F)n2Cc1c(F)cccc1F	-	RT-K101E	cytopathic effect / MTT	17.1
CCOC(=O)c1c[nH]cc1S(=O)(=O)c1cc(Cl)ccc1N	Clinical isolate	RT-Y181C	cytopathic effect / MTT	≥23
O=c1[nH]cnc2c1ncn2[C@H]1CC[C@@H](CO)O1	BI-03.97 (HXB2(RT-A62V S68G T69D V75I F77L F116Y Q151M))	RT-A62V S68G T69D V75I F77L F116Y Q151M	cytopathic effect	14.1
Fc1cccc(F)c1Cn1c(-c2c(F)cccc2F)nc2c(Br)cccc21	-	RT-Y188C	cytopathic effect / MTT	6.8
O=c1cc(Cc2c(F)cccc2F)nc(SC2CCCC2)[nH]1	-	RT-Y181C	cytopathic effect / MTT	18
CCCCCCCSc1nsc(NC(=O)Nc2ccccc2)n1	NL4-3	RT-K103N Y181C	cytopathic effect	2.28
C1CNCCNCCCN2CCCNCCNCCCN(C1)CC2	NL4-3	AMD3100-resistant	cytopathic effect / MTT	>6.96
Cc1cc(C)cc(S(=O)(=O)c2c(C(=O)NNCCO)[nH]c3ccc(Cl)cc23)c1	-	RT-K103N Y181C	cytopathic effect / MTT	3200
CC(C)=CCN1Cc2cc(Cl)cc3[nH]c(=O)n(c23)C[C@@H]1C	Recombinant	RT-P225H	cytopathic effect	2.4
CC(=O)c1ccc(C)cc1NC(C(N)=O)c1c(Cl)cccc1Cl	Recombinant mutant	RT-A98S	cytopathic effect / MTT	0.6
C=C(C)OC(=O)N1c2cc(Cl)ccc2NC(=S)C1(C)C	Recombinant	RT-V106A P225H	cytopathic effect	125
O=C(Nc1ncc[nH]1)c1cccc(CN2C(=O)N(Cc3ccccc3)[C@H](Cc3ccccc3)[C@H](O)[C@@H](O)[C@H]2Cc2ccccc2)c1	HXB2	PR-V82F	p24	0.5
Cc1cn([C@H]2C[C@H](N=[N+]=[N-])[C@@H](CO)O2)c(=O)[nH]c1=O	1506-RS (RT-Y188L)	RT-Y188L	cytopathic effect / MTT	1.4
Cc1cc(C)cc(S(=O)(=O)c2c(C(N)=O)[nH]c3ccc(Cl)cc23)c1	-	RT-K103N Y181C	cytopathic effect / MTT	133
CC(C)CN(C[C@@H](O)[C@H](Cc1ccccc1)NC(=O)O[C@H]1CCOC1)S(=O)(=O)c1ccc(N)cc1	NL4-3	L23I E34Q K43I M46I I50L G51A L63P A71V V82A T91A ATV resistant	-	>13
c1cc(CN2CCCNCCCNCCNCCC2)ccc1CN1CCCNCCCNCCNCCC1	NL4-3	AMD3100-resistant	cytopathic effect / MTT	66.25
CCC(C)Nc1nc(C(C)c2c(F)cccc2F)cc(=O)[nH]1	-	RT-Y181C	cytopathic effect / MTT	35
COc1c(O)c(Cl)c2c(c1OC)-c1c(c(Cl)c(O)c(OC)c1OC)C[C@H](C)[C@H](C)C2	1506-RS (RT-Y188L)	RT-Y188L	cytopathic effect / MTT	>14.1
CN(C)c1cccc2c1nc(-c1c(F)cccc1F)n2Cc1c(F)cccc1F	-	RT-V108I	cytopathic effect / MTT	6.4
CC(C)CN(C[C@@H](O)[C@H](Cc1ccccc1)NC(=O)O[C@H]1CO[C@H]2OCC(F)(F)[C@H]21)S(=O)(=O)c1ccc(N)cc1	NL4-3	A28S L33F V82I GRL04810-resistant	-	13
Cc1ccc(S(=O)(=O)c2c(C(=O)NNCCO)[nH]c3ccc(Cl)cc23)c(C)c1	-	RT-Y181C	cytopathic effect / MTT	12.5
c1ccc2c(CN3CCCNCCNCCCNCC3)cc(CN3CCCNCCNCCCNCC3)cc2c1	NL4-3	AMD3100-resistant	cytopathic effect / MTT	>125
CC(C)=CCN1Cc2cc(Cl)cc3[nH]c(=S)n(c23)C[C@@H]1C	Recombinant mutant	RT-A98S E138A	cytopathic effect / MTT	2.3
Cc1c(C(C)c2c(F)cccc2F)nc(NC(C)C)[nH]c1=O	-	RT-Y181C	cytopathic effect / MTT	29
C1CNCCNCCCN(CCCN2CCCNCCNCCCNCC2)CCNC1	NL4-3	gp120 F145L N269E Q278H I288V N293D FNSTW364-368 deletion	p24	>83.3
c1ccc(-c2cc(CN3CCCNCCNCCCNCC3)cc(CN3CCCNCCNCCCNCC3)c2)cc1	NL4-3	AMD3100-resistant	cytopathic effect / MTT	2.1
Cc1cccc(C)c1CNC(=O)[C@H]1N(C(=O)[C@@H](O)C[C@@H](Cc2ccccc2)C(=O)N[C@H]2c3ccccc3C[C@H]2O)CSC1(C)C	-	PR-V18C	p24	1
CC(C)(C)NC(=O)[C@@H]1C[C@@H]2CCCC[C@@H]2CN1C[C@@H](O)[C@H](Cc1ccccc1)NC(=O)[C@H](CC(N)=O)NC(=O)c1ccc2ccccc2n1	NL4-3	PR-L63P V82T I84V	p24	2
CNc1nc(C(C)c2c(F)cccc2F)c(C)c(=O)[nH]1	-	RT-Y181C	cytopathic effect / MTT	650
CC(C)[C@H](NC(=O)N(C)Cc1ccccn1)C(=O)N[C@@H](Cc1ccccc1)[C@H](O)[C@H](O)[C@H](Cc1ccccc1)NC(=O)[C@@H](NC(=O)N(C)Cc1ccccn1)C(C)C	NL4-3	PR-R8K	p24	20
Cc1cn([C@H]2C=C[C@@H](COC(=O)NCCSC(=O)OC[C@@H]3C=C[C@H](n4cc(C)c(=O)[nH]c4=O)O3)O2)c(=O)[nH]c1=O	EFV-resistant (RT K103R V179D P225H)	RT-K103R V179D P225H	cytopathic effect / MTT	0.3
c1cc(CN2CCCNCCCNCCNCCC2)cc(CN2CCCNCCCNCCNCCC2)c1	NL4-3	AMD3100-resistant	cytopathic effect / MTT	>125

A second listing of 4 rows from above:

compound,strain,changes,method,result
C1CNCCNCCCN(CCCN2CCCNCCNCCCNCC2)CCNC1,NL4-3,gp120 F145L N269E Q278H I288V N293D FNSTW364-368 deletion,p24,>83.3
CCC(C)Nc1nc(C(C)c2c(F)cccc2F)cc(=O)[nH]1,-,RT-Y181C,cytopathic effect / MTT,35
Cc1cn([C@H]2C=C[C@@H](COC(=O)NCCSC(=O)OC[C@@H]3C=C[C@H](n4cc(C)c(=O)[nH]c4=O)O3)O2)c(=O)[nH]c1=O,EFV-resistant (RT K103R V179D P225H),RT-K103R V179D P225H,cytopathic effect / MTT,0.3
COC(=O)N[C@@H](Cc1c[nH]c2ccccc12)C(=O)NCCCC[C@@H](CO)N(CC(C)C)S(=O)(=O)c1ccc(N)cc1,RF2802 (PR-V82F I84V),PR-V82F I84V,cytopathic effect / MTT,0.9

Fold resistance has wild type as its base. An empty or dashed field is not shown.